Compound potency records, mixed from different reports. Data source: NIAID ChemDB in PubChem.

Shared fields: whole-cell or culture tests; species: Poliovirus; read-out: EC50

a–b is a range or a potency band. ECn is the concentration giving n% inhibition of infection, replication or growth. Blank or dashed fields: not listed here. Conditions beyond the fields shown may differ between rows.

| structure | strain or isolate | cells | result |
|---|---|---|---|
| CCOC(=O)c1ccc(OCCCOc2ccc(-c3snc(SC)c3C#N)cc2)cc1 | TYPE 1 | HEP-2/L-929/VERO | >2 µM |
| Brc1ccc(C2=Cc3ccccc3OC2)cc1 | II (TYPE 2) | HEP-2 | >10 µM |
| CC(N)c1ccc2c(c1)Sc1ccccc1O2 | TYPE 3 | BSC-1 | 10 µg/mL |
| Cc1ccc(C(=O)CCCCOc2ccc(C3=NCCO3)cc2)s1 | TYPE 3 | VERO | 0.17 µM |
| c1ccc(C2COc3ccccc3C2)cc1 | IB (TYPE 2) | HEP-2 | >10 µM |
| Cc1ccc(C(=O)CCCCOc2ccc(C3=NCC(C)O3)cc2Cl)s1 | TYPE 2 | VERO | 3.63 µM |
| CC(OC(=O)Nc1ccc2ccccc2c1)c1ccc2c(c1)Sc1ccccc1O2 | TYPE 3 | BSC-1 | >10 µg/mL |
| CSc1nsc(-c2ccc(OCCOc3ccc([N+](=O)[O-])cc3)cc2)c1C#N | TYPE 1 | HEP-2/L-929/VERO | >1 µM |
| Brc1ccc(C2=Cc3cc(Br)ccc3OC2)cc1 | II (TYPE 2) | HEP-2 | >10 µM |
| CSc1nsc(-c2ccc[n+](C)c2)c1C#N | Type 1/Brunhilde | HEP-2 | 250 µM |
| CC(O)c1ccc2c(c1)Sc1ccccc1O2 | TYPE 3 | BSC-1 | <0.4 µg/mL |
| CSc1nsc(-c2ccc(OCCOc3ccccc3)cc2)c1C#N | TYPE 1 | HEP-2/L-929/VERO | 5 µM |
| Clc1ccc(C2=Cc3cc(Cl)ccc3OC2)cc1 | TYPE 2 | HEP-2 | >10 µM |
| CSc1nsc(-c2ccccc2)c1C#N | Type 1/Brunhilde | HEP-2 | 0.045 µM |
| C/C(=N\O)c1ccc2c(c1)Sc1ccccc1S2 | TYPE 3 | BSC-1 | 2–10 µg/mL |
| Cc1ccc(C(=O)CCCCOc2ccc(C3=NC(C)CO3)cc2)s1 | TYPE 3 | VERO | 0.67 µM |
| Clc1ccc(C2COc3ccccc3C2)cc1 | II (TYPE 2) | HEP-2 | >10 µM |
| CSc1nsc(-c2cccc(Cl)c2)c1C#N | Type 1/Brunhilde | HEP-2 | 0.2 µM |
| CC(O)c1ccc2c(c1)Sc1cc(C(C)O)ccc1O2 | TYPE 3 | BSC-1 | >10 µg/mL |
| CSc1nsc(-c2cccs2)c1C#N | Type 1/Brunhilde | HEP-2 | 0.1 µM |
| Nc1ncnc2c1ncn2[C@@H]1OCC(CO)=C1F |  |  | >100 µg/mL |
| CSc1nsc(SC)c1C#N | Type 1/Brunhilde | HEP-2 | >12 µM |
| CCC(O)c1ccc2c(c1)Sc1ccccc1O2 | TYPE 3 | BSC-1 | 2–10 µg/mL |
| COc1ccc(-c2snc(SC)c2C#N)cc1 | Type 1/Brunhilde | HEP-2 | 0.6 µM |
| Cc1ccc(C(=O)CCCCOc2ccc(C3=NCC(C)O3)cc2)s1 | TYPE 1 | VERO | >28.01 µM |
| Clc1ccc2c(c1)C=C(c1ccc(Br)cc1)CO2 | TYPE 2 | HEP-2 | >10 µM |
| CCC1COC(c2ccc(OCCCCC(=O)c3ccc(C)s3)cc2)=N1 | TYPE 3 | VERO | >26.95 µM |
| CSc1nsc(-c2ccc(OCCCOc3ccc([N+](=O)[O-])cc3)cc2)c1C#N | TYPE 1 | HEP-2/L-929/VERO | >0.5 µM |

The last 3 rows once more:

| structure | strain or isolate | cells | result |
|---|---|---|---|
| Clc1ccc2c(c1)C=C(c1ccc(Br)cc1)CO2 | TYPE 2 | HEP-2 | >10 µM |
| CCC1COC(c2ccc(OCCCCC(=O)c3ccc(C)s3)cc2)=N1 | TYPE 3 | VERO | >26.95 µM |
| CSc1nsc(-c2ccc(OCCCOc3ccc([N+](=O)[O-])cc3)cc2)c1C#N | TYPE 1 | HEP-2/L-929/VERO | >0.5 µM |